Values quoted from earlier work in paper PMC4158172, “Effects of enzyme inducers efavirenz and tipranavir/ritonavir on the pharmacokinetics of the HIV integrase inhibitor dolutegravir” (European Journal of Clinical Pharmacology, 2014).

Test system: P-gp
Conditions: not told; cited from earlier work

Substance: tipranavir/ritonavir [TPV/r]
- effect on intestinal P-gp: moderately inhibits
